Pooled drug test results. Numbers come from NIAID ChemDB, via PubChem.

Shared fields: tests in culture; agent: Herpes simplex virus 2; cell line: HEL; read-out: EC50

Lines come from different laboratories, so protocols vary. Blank or dashed fields: not listed here. ECn: concentration that inhibits the pathogen or its effect by n%.

smiles | strain or isolate | method | value
Nc1nc(N)c2ncn(CCOCP(=O)(O)O)c2n1 | ACV-resistant | cytopathic effect | 2.5 µg/mL
Nc1ccnc2c1ncn2[C@H]1C[C@H](O)[C@@H](COP(=O)(O)COC(=O)[C@@H](N)CC(=O)O)O1 | G | - | >100 µM
CCc1cn([C@@H]2O[C@H](CO)[C@@H](O)[C@@H]2F)c(=O)[nH]c1=O | - | plaque count | 0.77 µM
Nc1nc2c(ncn2CCC(CO)CO)c(=O)[nH]1 | PCV-resistant/A | cytopathic effect | 11 µg/mL
Cc1cn([C@@H]2O[C@H](CO)[C@@H](O)[C@@H]2O)c(=O)[nH]c1=O | HS-44 | cytopathic effect | >20 µg/mL
Nc1nc2c(ncn2COC(CO)CO)c(=O)[nH]1 | G | - | 0.02 µM
Nc1ncnc2c1ncn2C[C@@H](CO)OCP(=O)(O)O | HS-47 | cytopathic effect | 0.11 µg/mL
COC(=O)CN(CC(=O)OC)P(=O)(OC[C@H]1O[C@@H](n2cc(/C=C/Br)c(=O)[nH]c2=O)C[C@@H]1O)Oc1ccccc1 | G | - | >100 µM
Nc1ccn(C[C@@H](CO)OCP(=O)(O)O)c(=O)n1 | HS-44 | cytopathic effect | 0.27 µg/mL
O=c1[nH]c(=O)n([C@@H]2O[C@H](CO)[C@@H](O)[C@@H]2F)cc1I | - | plaque count | 0.161 µM
OC[C@H]1O[C@@H](n2cnc3c(Cl)nccc32)C[C@@H]1O | G | - | >100 µM
COC(=O)c1cc(O)c(O)c(O)c1 | G | plaque count | 2.6 µg/mL
O=c1[nH]c(=O)n([C@H]2C[C@H](O)[C@@H](CO)O2)cc1/C=C/Br | HS-44 | cytopathic effect | >50 µg/mL
Nc1nccc2c1ncn2[C@H]1C[C@H](O)[C@@H](COP(=O)(O)COC(=O)[C@@H](N)CC(=O)O)O1 | G | - | >100 µM
Cc1cn([C@@H]2O[C@H](CO)C[C@@H]2O)c(=O)[nH]c1=O | - | plaque count | >1322 µM
CCCOC(=O)c1cc(O)c(O)c(O)c1 | G | plaque count | 9.1 µg/mL
Nc1nc(N)c2ncn(CCOCP(=O)(O)O)c2n1 | HS-47 | cytopathic effect | 2 µg/mL
Nc1ccn(C[C@@H](CO)OCP(=O)(O)O)c(=O)n1 | G | - | 2 µM
Cc1cc(=O)oc2cc(O)c(O)cc12 | G | plaque count | 12 µg/mL
O=c1[nH]c(=O)n(C2CC(O)C(CO)O2)cc1/C=C/Br | G | - | 250 µM
O=C(O)P(=O)(O)O | G | cytopathic effect | 12.5 µg/mL
O=c1[nH]cccc1O | G | plaque count | >200 µg/mL

The first 2 rows once more:

| smiles | strain or isolate | method | value |
|---|---|---|---|
| Nc1nc(N)c2ncn(CCOCP(=O)(O)O)c2n1 | ACV-resistant | cytopathic effect | 2.5 µg/mL |
| Nc1ccnc2c1ncn2[C@H]1C[C@H](O)[C@@H](COP(=O)(O)COC(=O)[C@@H](N)CC(=O)O)O1 | G | - | >100 µM |